# Reference: PubChem BioAssay AID1224833 (University of Georgia, 2016)
# Aim: 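Human genes whose knock-down alters rotavirus replication in monkey cells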 (primary screen)
# Cells: monkey MA104 kidney cells
# Reagent: siRNA pool against human genes, 50 nM
# Timing: 48 h knock-down before infection; read 24 h after infection
# Challenge: infection with rotavirus strain RV3 two days after transfection; infectious dose for this stage not given
# Measured: 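Rotavirus antigen per well by fluorescent immunoassay, normalised to non-targeting control wells on each plate and given as a standard z-score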
# Scale: z-score vs non-targeting control: higher = more rotavirus replication than with non-targeting control
# Hit rule: In these data the active calls have z-score vs non-targeting control at about -1 or lower, or at about 1 or higher
# Meaning of the calls: active = z-score beyond 1 either way; inactive = z-score within 1 of zero
# Here is an unselected part of about 12,000 reagents tested. About 5,600 of all reagents (46%) were called active. 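Active calls cover z-scores past 1 in both directions, so they include lowered as well as raised rotavirus replication.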
Gene,z-score vs non-targeting control,activity call
TRNP1,-2.08,active
OR4A16,-1.8,active
TYW5,-0.635,inactive
FAM13A,-0.0567,inactive
ATPAF2,-0.477,inactive
TRMT6,0.635,inactive
FAM219B,1.3,active
PARPBP,0.998,inactive
TOMM70,0.585,inactive
FOXP2,0.714,inactive
RHOD,-1.42,active
SMIM8,-0.52,inactive
CFAP70,1.61,active
COPE,1.64,active
PPP1R14A,-1.58,active
RIGI,-1.06,active
PARVA,0.921,inactive
TBKBP1,0.422,inactive
UQCC2,0.709,inactive
HHIPL1,0.195,inactive
YWHAZ,-0.931,inactive
VILL,-0.479,inactive
TBX15,0.911,inactive
KRT74,-0.169,inactive
DARS1,1.6,active
ACSL3,-1.13,active
RNASE11,-1.29,active
MDH2,-2.1,active
MSX2,-2.42,active
GGN,-0.488,inactive
CRYBB2,0.155,inactive
MRPS27,-0.127,inactive
PKP2,-0.534,inactive
NDUFAB1,-0.788,inactive
RDH14,0.591,inactive
KIF22,-1.22,active
ICAM5,-0.699,inactive
DRD5,-0.678,inactive
CABP1,-0.87,inactive
AKR1B15,-2.37,active
APRG1,-0.896,inactive
CYP2C9,-1.96,active
FLG,-1.13,active
MEA1,1.28,active
ZFP37,-0.571,inactive
CGB2,-0.249,inactive
IDH3A,-0.962,inactive
CCDC122,1.41,active
DNAAF2,-0.484,inactive
HELB,-1.03,active
GTF3C6,-0.2,inactive
SERGEF,0.442,inactive
SFXN2,-0.949,inactive
IDH3B,-0.645,inactive
TBC1D3G,1.34,active
KRT31,-2.68,active
ANO9,-0.306,inactive
QARS1,-1.62,active
HRH3,-1.02,active
LUC7L3,-0.463,inactive
PRR18,-2.79,active
VPS26B,1.12,active
SIDT2,0.502,inactive
DCAF1,-0.551,inactive
LRRC3,-2.74,active
XK,-0.574,inactive
MNMIP1,-0.645,inactive
DAZAP2,-0.193,inactive
UGT1A5,2.66,active
ELOVL3,-0.838,inactive
TMEM150A,-0.97,inactive
H3C4,0.0203,inactive
H1-4,-1.87,active
CLECL1,0.892,inactive
BAZ1A,-0.138,inactive
ZNF671,0.887,inactive
ESYT3,-1.57,active
NOP58,-2.02,active
POLR2A,-5.34,active
PAQR5,-2.1,active
ZNF121,-1.7,active
GTF3A,-2.07,active
TYROBP,1.51,active
NOX3,-1.02,active
MBD6,-3.01,active
MPHOSPH6,-1.73,active
ALX1,-0.642,inactive
SMOX,-1.74,active
PRB4,-1.97,active
ZNF532,-0.549,inactive
CREBZF,-2.03,active
TEX264,0.907,inactive
ATP1A4,-1.2,active
DNAJC21,-2.2,active
AKAP1,0.54,inactive
SERPINA1,0.962,inactive
AAR2,-0.445,inactive
PEX13,1.89,active
TNIP2,-2.19,active
SMN1,-1.07,active
ZNF385B,0.49,inactive
ABRAXAS2,0.0248,inactive
SP8,-0.188,inactive
ESPN,0.892,inactive
HLA-DOA,-0.823,inactive
FBL,-1.37,active
DSP,-0.137,inactive
COL18A1,-0.946,inactive
SLC26A3,0.853,inactive
ZDHHC20,-0.565,inactive
TNNC1,-0.294,inactive
IL38,-0.766,inactive
ZMYND12,-0.345,inactive
MTMR12,-0.711,inactive
LENG8,-1.33,active
SYMPK,0.905,inactive
PDE3A,1.51,active
RBM12,-0.435,inactive
MANBAL,-0.334,inactive
ACTR10,1.19,active
DNALI1,0.922,inactive
ODC1,-3.46,active
ZFP2,-1.37,active
OR4C6,-1.41,active
DEFA3,-0.386,inactive
TTPAL,0.761,inactive
GPR20,0.731,inactive
OCLM (retired record),1.65,active
CD48,-0.0915,inactive
PSMD2,0.422,inactive
LHFPL1,-2.33,active
SLC5A6,-0.865,inactive
OR4F21,-1.16,active
PLEKHG7,-1.95,active
CTAG1A,0.0514,inactive
GBX2,0.592,inactive
OR51B2,0.0675,inactive
EDN1,-1.87,active
PDCD2L,-0.62,inactive
LUZP6,-0.1,inactive

A portion taken from the entries so far:
Gene,z-score vs non-targeting control,activity call
PKP2,-0.534,inactive
NDUFAB1,-0.788,inactive
RDH14,0.591,inactive
KIF22,-1.22,active
ICAM5,-0.699,inactive
DRD5,-0.678,inactive
CABP1,-0.87,inactive
AKR1B15,-2.37,active
APRG1,-0.896,inactive
